Assay: Taste and overall acceptability questionnaire (Example 2)
Type: in vivo, human

## COc1cc(NC(C(=O)c2c[nH]c3ccc(OC(F)(F)F)cc23)c2ccc(Cl)cc2OC)cc(S(C)(=O)=O)c1 (centres unmarked) [Compound (a)]
Treatment J (800 mg SF2b, fasted)
  Overall acceptability rated as "good to take" (medicine for daily intake for a long period): 7 (87.5%) participants (%)
Treatment K (800 mg SF2b, high-fat, high-calorie)
  Overall acceptability rated as "good to take" (medicine for daily intake for a long period): 6 (75.0%) participants (%)
